# Potato spindle tuber viroid, loop 6: variant abundance in plants

Source: Wu et al. 2024 (doi:10.1371/journal.ppat.1012142), supplementary data.

PSTVd intermediate strain, loop 6: wild type UGACCGCGAG, pool pattern UNNNCGNNNG; upper and lower strand joined, each 5' to 3', the first 5 letters being the upper strand, closing pairs included.

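A pool of all variants was put on leaves of three Nicotiana benthamiana plants. Samples came from the inoculated region at 5 days, the leaf margin at 10 and upper systemic leaves at 12.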

Values are reads per thousand in the sample; higher means more abundant, 0 means not found.
Each value is the mean of three plants.
"Pool" is the share in the plasmid pool used as inoculum, on the same scale.
The inoculated region was read from the minus strand, the other sites from the plus strand.
For reference, wild type rose from 20.7 per thousand in the pool to 195, 198, 203 (inoculated region), 629, 591, 734 (leaf margin) and 942, 870, 868 (systemic leaves).
Sequences that differ at fixed positions probably stem from PCR or sequencing errors, and defective variants can be carried along by functional ones.
With 36,220-57,551 reads a sample, very low values are single reads.

| sequence | pool | inoculated region | leaf margin | systemic leaves |
|---|---|---|---|---|
| UGAUCGUAUG | 0.392 | 0.0775 | 0.0828 | 0 |
| UAAGCGGCGG | 0.157 | 0.0472 | 0 | 0 |
| UUACCGCGAG | 0.222 | 17.7 | 3.45 | 11.5 |
| UCUGCGGAAG | 0.183 | 0.0773 | 0.00773 | 0 |
| UCGGCGAAGG | 0.209 | 0.0885 | 0 | 0 |
| UAGCCGCGUG | 0.235 | 0.113 | 0.849 | 0.00684 |
| UGCCCGCAUG | 0.105 | 0.674 | 0.0683 | 0 |
| UGUGCGUUCG | 0.235 | 0.0837 | 0.00920 | 0 |
| UCCGCGCUGG | 0.170 | 0.0657 | 0 | 0 |
| UCGGCGGGUG | 0.183 | 0.0838 | 0.0169 | 0 |
| UCGACGGCGG | 0.209 | 0.0892 | 0 | 0 |
| UGCGCGGCAG | 0.105 | 0.572 | 0.0478 | 0 |
| UCGCCGUUUG | 0.353 | 0.0896 | 0.00773 | 0 |
| UGGCCGCAGG | 0.118 | 0.132 | 0.0232 | 0 |
| UACUCGAUUG | 0.235 | 0.0595 | 0 | 0 |
| UCCACGUCUG | 0.314 | 0.0714 | 0.00920 | 0 |
| UUAUCGAGAG | 0.288 | 0.652 | 0.117 | 0 |
| UUAACGUAUG | 0.418 | 0.131 | 0.0920 | 0 |
| UGUUCGAGGG | 0.170 | 0.0483 | 0 | 0 |
| UAUACGCGGG | 0.353 | 0.0901 | 0.00773 | 0.00673 |
| UGGCCGACAG | 0.222 | 0.149 | 0.00920 | 0 |
| UCCCCGAUAG | 0.418 | 0.113 | 0.0309 | 0 |
| UUGUAGAUCG | 0.0131 | 0 | 0 | 0 |
| UAAUCGCGGG | 0.353 | 0.131 | 0.00920 | 0.00684 |
| UCCACGAGUG | 0.261 | 0.0780 | 0.00773 | 0 |
| UAAGCGGCUG | 0.301 | 0.0596 | 0 | 0 |
| UUGCCGUCAG | 0.366 | 0.0593 | 0.0155 | 0 |
| UGCCCGUGUG | 0.209 | 0.0826 | 0.0155 | 0 |
| UUUGCGUAUG | 0.314 | 0.135 | 0.166 | 0 |
| UUCUCUAUAG | 0.0131 | 0 | 0 | 0 |
| UAUUCGCGCG | 0.196 | 0.0482 | 0.00920 | 0 |
| UUUGCGGGAG | 0.144 | 0.147 | 0 | 0 |
| UGCGCGAGCG | 0.105 | 0.0888 | 0.00773 | 0 |
| UCCUCGGUGG | 0.157 | 0.106 | 0.00920 | 0 |
| UGUACGUCGG | 0.301 | 0.0829 | 0 | 0 |
| UAUUCGAUUG | 0.405 | 0.108 | 0.00920 | 0 |
| UAAACGAUGG | 0.248 | 0.136 | 0.00773 | 0 |
| UAUGCGUAUG | 0.275 | 0.0712 | 0.0552 | 0 |
| UCCGCGAUUG | 0.275 | 0.0605 | 0.00773 | 0 |
| UGGCCGACUG | 0.235 | 0.138 | 0.00773 | 0 |
| UUCCCGAAUG | 0.379 | 0.148 | 0.00920 | 0 |
| UCAACGACUG | 0.222 | 0.0941 | 0 | 0 |
| UGUGCGCAAG | 0.105 | 0.136 | 0.0155 | 0 |
| UACACGUCCG | 0.157 | 0.0726 | 0 | 0 |
| UAAGCGUCUG | 0.261 | 0.602 | 0.104 | 0 |
| UUCGCGAUGG | 0.392 | 0.0898 | 0.00841 | 0 |
| UCGUCGAGCG | 0.248 | 0.0602 | 0 | 0 |
| UCGUCGGAUG | 0.275 | 0.0710 | 0.0169 | 0 |
| UCGACGGAGG | 0.144 | 0.0773 | 0 | 0 |
| UGUUCGCUCG | 0.261 | 0.0903 | 0 | 0 |
| UAAGCGUAUG | 0.248 | 0.113 | 0.166 | 0 |
| UUAACGCAAG | 0.0915 | 0.728 | 0.0716 | 0.0329 |
| UUGGCGGUGG | 0.405 | 0.113 | 0.00773 | 0 |
| UUUUCGGGUG | 0.131 | 0.148 | 0 | 0 |
| UAAGCGGACG | 0.209 | 0.638 | 0.0831 | 0.0338 |
| UGAGCGUGCG | 0.157 | 0.0480 | 0 | 0 |
| UCAGCGCGAU | 0.0261 | 0.0422 | 0.0169 | 0 |
| UGAUCGUUCG | 0.275 | 0.0940 | 0.00920 | 0 |
| UUGACGAUGG | 0.379 | 0.0710 | 0.00920 | 0 |
| UGUCCGGCUG | 0.209 | 0.102 | 0.00773 | 0 |
| UCCUCGCUCG | 0.235 | 0.0826 | 0.00773 | 0 |
| UCCACGUUUG | 0.431 | 0.0831 | 0 | 0 |
| UGAGCGAGCG | 0.196 | 0.107 | 0.00773 | 0 |
| UCGCCGCUGG | 0.131 | 0.101 | 0 | 0 |
| UUUGCGGGGG | 0.157 | 0.0652 | 0 | 0 |
| UGUGCGGUAG | 0.379 | 0.101 | 0 | 0 |

Extract of 6 entries:

* UAAUCGCGGG (pool 0.353) -> inoculated region 0.131; leaf margin 0.00920; systemic leaves 0.00684
* UAGCCGCGUG (pool 0.235) -> inoculated region 0.113; leaf margin 0.849; systemic leaves 0.00684
* UCCCCGAUAG (pool 0.418) -> inoculated region 0.113; leaf margin 0.0309; systemic leaves 0
* UCCACGAGUG (pool 0.261) -> inoculated region 0.0780; leaf margin 0.00773; systemic leaves 0
* UGCCCGUGUG (pool 0.209) -> inoculated region 0.0826; leaf margin 0.0155; systemic leaves 0
* UUCGCGAUGG (pool 0.392) -> inoculated region 0.0898; leaf margin 0.00841; systemic leaves 0